Pooled drug test results. Numbers come from NIAID ChemDB, via PubChem.

Shared fields: whole-cell or culture tests; species: HIV-1; cell line: H9; measure: EC50

Lines come from different laboratories, so protocols vary. An empty or dashed field is not shown. ECn: concentration that inhibits the pathogen or its effect by n%.

smiles | conditions | strain | read by | value
C=C(C)[C@@H]1CC[C@]2(C(=O)O)CC[C@]3(C)[C@H](CC[C@@H]4[C@@]5(C)CC[C@H](OC(=O)CC(C)(C)C(=O)O)C(C)(C)[C@@H]5CC[C@]43C)[C@@H]12 |  | IIIB | p24 / ELISA | <0.00035 µM
CCOC(=O)c1cc(C(=O)c2ccc(Cl)cc2)n2ccc(C(=O)NCc3ccccn3)cc12 |  | NL4-3 | ELISA | 98.1 µM
Nc1nc2c(ncn2[C@@H]2C=C[C@H](CO)C2)c(=O)[nH]1 |  | IIIB | RT activity | >60 µM
O=S(=O)(Nc1cccc2cccnc12)c1ccc(F)cc1F | pseudotyped | NL4-3 | p24 / ELISA | 0.23 µM
C=C(C)[C@@H]1CC[C@]2(C(=O)O)CC[C@]3(C)[C@H](CC[C@@H]4[C@@]5(C)CC[C@@H](NC(=O)COCC(=O)O)C(C)(C)[C@@H]5CC[C@]43C)[C@@H]12 |  | IIIB | p24 / ELISA | 0.24 µM
CCN(CC)CCNc1nc(NCCCNC(=O)c2cccc(C(=O)NCCCNc3nc4c(c(NCCN(CC)CC)n3)CC=CC4)c2)nc2c1CC=CC2 |  | IIIB | syncytia / ELISA | 0.125 µM
CCOC(=O)c1cc(C(=O)c2ccc3ccccc3c2)n2ccc(C(=O)c3ccncc3)cc12 |  |  | p24 | 11 µM
O=C1CCC(=O)N1CCCCCCc1ccc2c3ccccc3c3ccccc3c2c1 |  | NL4-3 | p24 | >100 µM
CCOC(=O)c1cc(C(=O)c2ccc3ccccc3c2)n2ccc(C(=O)NCc3ccccn3)cc12 |  |  | p24 / ELISA | 82 µM
CCn1ccc(=O)c2cnc(-c3ccncc3)nc21 |  | IIIB | p24 / trypan blue | 12.1 µM
Cc1cccc(CNc2nc3cc(C(=O)NC(C)(CO)CO)ccc3n2C2CCCCCC2)c1F | 20% FBS |  | syncytia | 0.4 µM
COc1ccc(-c2c(C)nc3c(N4CCCC4)cc(C)nn23)cc1OC |  |  | p24 | 0.05 µM
CCCCCn1ccc(=O)c2cnc(-c3ccncc3)nc21 |  | IIIB | p24 / trypan blue | 3 µM
C=C(C)[C@@H]1CC[C@]2(COC(=O)CC(C)(C)CC(=O)O)CC[C@]3(C)[C@H](CC[C@@H]4[C@@]5(C)CC=CC(C)(C)[C@@H]5CC[C@]43C)[C@@H]12 |  | IIIB | p24 | 11.9 µM
Cc1ccc(S(=O)(=O)Nc2cccc3cccnc23)cc1 | pseudotyped | NL4-3 | p24 / ELISA | >50 µM
CCOC(=O)c1cc(C(=O)c2ccc3ccccc3c2)n2ccc(C(=O)c3ccccc3)cc12 |  |  | p24 | 36.1 µM
CCOC(=O)c1cc(C(=O)c2ccccc2)n2ccc(C(=O)NCc3ccccc3)cc12 |  | NL4-3 | ELISA | 50.9 µM
CC1(C)Oc2ccc3ccc(=O)oc3c2[C@@H](OC(=O)C23CCC(C)(C(=O)O2)C3(C)C)[C@H]1OC(=O)C12CCC(C)(C(=O)O1)C2(C)C |  | IIIB | p24 / ELISA | 0.00041 µM
CCOC(=O)c1cc(C(=O)c2ccccc2N)n2ccc(C(=O)NCc3ccccn3)cc12 |  | NL4-3 | ELISA | 45.5 µM
Nc1nccc2c1ncn2[C@@H]1O[C@H](CO)[C@@H](O)[C@H]1O |  | MN | syncytia | 0.001 µM
CCOC(=O)c1cc(C(=O)c2ccccc2)n2ccc(C(=O)NCc3ccco3)cc12 |  | NL4-3 | ELISA | 19.3 µM
Nc1nc2c(ncn2[C@@H]2O[C@H](COP(=O)(O)O)[C@@H](O)[C@H]2O)c(=O)o1 |  | IIIB | RT activity | >30 µg/mL
O=C(OC1[C@H](OC(=O)c2cc(O)c(O)c(O)c2)CC(OC(=O)c2cc(O)c(O)c(O)c2)(C(=O)O)C[C@H]1OC(=O)c1cc(O)c(O)c(O)c1)c1cc(O)c(O)c(O)c1 |  | IIIB | p24 | <25 µM
O=S(=O)(Nc1cccc2cccnc12)c1ccc(Cl)cc1Cl | pseudotyped | NL4-3 | p24 / ELISA | >50 µM
CCOC(=O)c1cc(C(=O)c2ccc3ccccc3c2)n2ccc(C(=O)NCc3ccccn3)cc12 |  |  | p24 | 82 µM
C[C@@H]1CCO[C@H]2Cn3cc(C(=O)NCc4ccc(F)cc4F)c(=O)c(O)c3C(=O)N12 |  | IIIB | luminescence | 0.00051 µM
C=C(C)[C@@H]1CC[C@]2(C(=O)O)CC[C@]3(C)[C@H](CC[C@@H]4[C@@]5(C)CC[C@H](OC(=O)CC(C)(C)CC(=O)O)C(C)(C)[C@@H]5CC[C@]43C)[C@@H]12 |  | IIIB | p24 / ELISA | 0.0023 µM
Cc1cc(C)cc(CNc2nc3cc(C(=O)NC(C)CO)ccc3n2C2CCCCCC2)c1 | 20% FBS |  | syncytia | 0.3 µM
O=C(CCCCC1SC[C@@H]2NC(=O)N[C@H]12)NCCOCCOCCOc1cc(C2(C(F)(F)F)N=N2)ccc1C(=O)NCCOCCOCCNC(=O)c1cc(C(=O)c2ccc3ccccc3c2)n2ccc(C(=O)c3ccccc3)cc12 |  |  | p24 / ELISA | 34.6 µM
C=C(C)[C@@H]1CC[C@]2(C(=O)O)CC[C@]3(C)[C@H](CC[C@@H]4[C@@]5(C)CC[C@H](OC(=O)COCC(=O)O)C(C)(C)[C@@H]5CC[C@]43C)[C@@H]12 |  | IIIB | p24 / ELISA | 0.01 µM
Nc1nc2c(ncn2[C@@H]2O[C@H](CO)[C@@H](O)[C@H]2O)c(=O)o1 |  | IIIB | RT activity | >30 µg/mL
CCCNc1nc(NCCCNC(=O)c2cccc(C(=O)NCCCNc3nc4c(c(NCCC)n3)CC=CC4)c2)nc2c1CC=CC2 |  | IIIB | syncytia / ELISA | 2.5 µM
[N-]=[N+]=NCCOCCOCCOc1cc(C2(C(F)(F)F)N=N2)ccc1C(=O)NCCOCCOCCNC(=O)c1cc(C(=O)c2ccc3ccccc3c2)n2ccc(C(=O)c3ccccc3)cc12 |  |  | p24 / ELISA | 27.4 µM
CC1=CC[C@@H]([C@@H](C)[C@H]2CC[C@@]3(C)C4=C(C=C5C=CC(=O)OC(C)(C)[C@@H]5C=C4)CC[C@]23C)OC1=O |  | IIIB | p24 | >7.1 µg/mL
O=C(/C=C/c1ccc(O)c2c1[C@H](C(=O)O)[C@@H](c1ccc(O)c(O)c1)O2)O[C@H](Cc1ccc(O)c(O)c1)C(=O)O |  | MN | p24 | 2 µM
COc1ccc(-c2c(C)nc3c(N4CCN(C(=O)C5CCCCC5)CC4)cc(C)nn23)cc1OC |  |  | p24 | 2 µM
O=P(O)(O)OP(=O)(O)OP(=O)(O)OP(=O)(O)OP(=O)(O)OP(=O)(O)OP(=O)(O)OP(=O)(O)OP(=O)(O)OP(=O)(O)OP(=O)(O)OP(=O)(O)OP(=O)(O)OP(=O)(O)OP(=O)(O)O |  | IIIB | p24 | >100 µg/mL
CC1(C)Oc2ccc3ccc(=O)oc3c2[C@@H](OC(=O)C23CCC(C)(C(=O)O2)C3(C)C)[C@@H]1OC(=O)C12CCC(C)(C(=O)O1)C2(C)C |  | IIIB | p24 / ELISA | 32 µM
C[C@H]1[C@H](C)CC[C@]2(C(=O)O)CC[C@]3(C)C(=CC[C@@H]4[C@@]5(C)CC[C@H](OC(=O)CC(C)(C)C(=O)O)C(C)(C)[C@@H]5CC[C@]43C)[C@H]12 |  | IIIB | p24 / ELISA | 2.1 µM
CC1(C)CC[C@]2(C(=O)O)CC[C@]3(C)C(=CC[C@@H]4[C@@]5(C)CC[C@H](O)C(C)(C)[C@@H]5CC[C@]43C)[C@@H]2C1 |  | IIIB | p24 / ELISA | 3.7 µM
O=c1cc[nH]c2nc(-c3ccncc3)ncc12 |  | IIIB | p24 / trypan blue | 60 µM
O=C(OCCOCCOCCNC(=O)c1cc(C(=O)c2ccc3ccccc3c2)n2ccc(C(=O)c3ccccc3)cc12)c1ccccc1 |  |  | p24 | 56.5 µM
COc1cc([C@H]2c3c(cc4c(c3OC)OCO4)C[C@H]3COC(=O)[C@@H]32)cc(C)c1OC |  | IIIB | p24 | 3.62 µM
Cc1cc(C)cc(CNc2nc3cc(C(=O)NC(C)(CO)CO)ccc3n2C2CCCCCC2)c1 | 20% FBS |  | syncytia | 0.75 µM
Nc1nccc2c1ncn2[C@@H]1C=C(CO)[C@@H](O)[C@H]1O |  | MN | RT activity | 0.001 µM
CCN(CC)CCNc1ccnc(NCCCNC(=O)CCC(=O)NCCCNc2nccc(NCCN(CC)CC)n2)n1 |  | IIIB | syncytia / ELISA | 0.5 µM
C[C@H]1[C@H](C)CC[C@]2(C(=O)O)CC[C@]3(C)C(=CC[C@@H]4[C@@]5(C)CC[C@H](OC(=O)CC(C)(C)CC(=O)O)C(C)(C)[C@@H]5CC[C@]43C)[C@H]12 |  | IIIB | p24 / ELISA | >7 µM
CCN(CC)CCNc1ccnc(NCCCNC(=O)CC(=O)NCCNc2nccc(NCCN(CC)CC)n2)n1 |  | IIIB | syncytia / ELISA | 2 µM
C[C@@H]1CC[C@]2(C(=O)O)CC[C@]3(C)C(=CC[C@@H]4[C@@]5(C)CC[C@H](O)C(C)(C)[C@@H]5CC[C@]43C)[C@@H]2[C@]1(C)O |  | IIIB | p24 / ELISA | 3 µM
CC1=CCC[C@H]2[C@](C)(CC3=CC(=O)C=CC3=O)[C@@H](C)CC[C@]12C |  | IIIB | p24 | >1 µg/mL
CCCCn1cc(N)c(=O)c2cnc(-c3ccncc3)nc21 |  | IIIB | p24 / trypan blue | 3.5 µM
Cc1c(O)c(=O)ccn1C |  |  | p24 | ~135 µM
O=c1oc(-c2ccc(OCc3ccccn3)cc2)cc(O)c1SCCc1ccccc1 |  |  | RT activity | 2.3 µM
C[C@H](CCC(=O)O)[C@H]1CC[C@H]2[C@@H]3CC[C@@H]4C[C@H](O)CC[C@]4(C)[C@H]3C[C@H](O)[C@]12C |  | IIIB | syncytia | <10 µg/mL
O=[N+]([O-])c1cccc(S(=O)(=O)Nc2cccc3cccnc23)c1 | pseudotyped | NL4-3 | p24 / ELISA | >30 µM
Cc1cn([C@H]2C[C@H](N=[N+]=[N-])[C@@H](CO)O2)c(=O)[nH]c1=O |  | IIIB | p24 / ELISA | 0.045 µM
CC(=O)N[C@@H]1CCN(c2cc(C)nn3c(-c4ccc(CO)cc4)c(C)nc23)C1 |  |  | p24 | 0.4 µM
C[C@H](CCC(=O)N[C@@H](Cc1cc(I)c(O)cc1I)C(=O)O)[C@H]1CC[C@H]2[C@@H]3CCC4C[C@H](O)CC[C@]4(C)[C@H]3C[C@H](O)[C@]12C |  | IIIB | syncytia | <0.001 µg/mL
CC(C)CCC[C@@H](C)[C@H]1CCC2C3CCC4C[C@@H](OCc5cn([C@@H]6O[C@H](COS(=O)(=O)[O-])[C@@H](O[C@H]7O[C@H](COS(=O)(=O)[O-])[C@@H](O[C@H]8O[C@H](COS(=O)(=O)[O-])[C@@H](OS(=O)(=O)[O-])[C@H](OS(=O)(=O)[O-])[C@H]8OS(=O)(=O)[O-])[C@H](OS(=O)(=O)[O-])[C@H]7OS(=O)(=O)[O-])[C@H](OS(=O)(=O)[O-])[C@H]6OS(=O)(=O)[O-])nn5)CC[C@]4(C)C3CC[C@@]21C |  | IIIB | p24 / ELISA / antigen | 7 µg/mL
CCN(CC)CCNc1ccnc(NCCCNC(=O)c2ccc(C(=O)NCCCNc3nccc(NCCN(CC)CC)n3)cc2)n1 |  | IIIB | syncytia / ELISA | 0.25 µM
Cc1cccc(CNc2nc3cc(C(=O)NC(C)CO)ccc3n2C2CCCCCC2)c1C | 2% FBS |  | syncytia | 3 µM
COc1ccc(-c2c(C)nc3c(N4CC[C@@H](NS(C)(=O)=O)C4)cc(C)nn23)cc1OC |  |  | p24 | 1 µM
C[C@H](Cc1ccc(OC(=O)CN(C)C)c(OC(=O)CN(C)C)c1)[C@@H](C)Cc1ccc(OC(=O)CN(C)C)c(OC(=O)CN(C)C)c1 |  | AZT-resistant RTMF | p24 | 12 µM
C[C@H]1[C@H](C)CC[C@]2(C(=O)O)CC[C@]3(C)C(=CC[C@@H]4[C@@]5(C)CC[C@H](OC(=O)COCC(=O)O)C(C)(C)[C@@H]5CC[C@]43C)[C@H]12 |  | IIIB | p24 / ELISA | 0.31 µM
CCc1cn([C@@H]2C[C@H](O)[C@@H](CO)O2)c(=O)[nH]c1=O |  | IIIB | p24 | 10 µM
Cc1cc(=O)oc2c3c(ccc12)O[C@H](C)[C@H](OC(=O)[C@@]12CC[C@@](C)(C(=O)O1)C2(C)C)[C@@H]3OC(=O)[C@@]12CC[C@@](C)(C(=O)O1)C2(C)C |  | IIIB | p24 / antigen | >100 µg/mL
Cc1cn([C@H]2C[C@H](N=[N+]=[N-])[C@@H](CO)O2)c(=O)[nH]c1=O |  | IIIB | p24 | <0.001 µg/mL
CCOC(=O)c1cc(C(=O)c2ccccc2)n2ccc(C(=O)NCc3cccnc3)cc12 |  | NL4-3 | ELISA | 54.3 µM
COc1ccc(S(=O)(=O)Nc2cccc3cccnc23)cc1 | pseudotyped | NL4-3 | p24 / ELISA | >50 µM
COc1ccc(-c2c(-c3ccc(C)cc3)nc3c(N4CC[C@@H](NC(C)=O)C4)cc(C)nn23)cc1OC |  |  | p24 | 0.05 µM
COc1c2c(cc3c1[C@H](c1ccc(O)c(Oc4ccccc4)c1)[C@H]1C(=O)OC[C@@H]1C3)OCO2 |  | IIIB | p24 | 2.38 µM
O=C(OCCOCCOCCNC(=O)c1cc(C(=O)c2ccc3ccccc3c2)n2ccc(C(=O)c3ccccc3)cc12)c1ccccc1 |  |  | p24 / ELISA | 56.5 µM
CCN(CCNC(C)=O)c1cc(C)nn2c(-c3ccc(OC)c(OC)c3)c(C)nc12 |  |  | p24 | 5 µM
CN1N=C(N)c2cn([C@@H]3O[C@H](COP(=O)(O)O)[C@@H](O)[C@H]3O)c3ncnc1c23 |  | IIIB | RT activity | 0.05 µM

The last 5 rows once more:

smiles,conditions,strain,read by,value
COc1ccc(-c2c(-c3ccc(C)cc3)nc3c(N4CC[C@@H](NC(C)=O)C4)cc(C)nn23)cc1OC,,,p24,0.05 µM
COc1c2c(cc3c1[C@H](c1ccc(O)c(Oc4ccccc4)c1)[C@H]1C(=O)OC[C@@H]1C3)OCO2,,IIIB,p24,2.38 µM
O=C(OCCOCCOCCNC(=O)c1cc(C(=O)c2ccc3ccccc3c2)n2ccc(C(=O)c3ccccc3)cc12)c1ccccc1,,,p24 / ELISA,56.5 µM
CCN(CCNC(C)=O)c1cc(C)nn2c(-c3ccc(OC)c(OC)c3)c(C)nc12,,,p24,5 µM
CN1N=C(N)c2cn([C@@H]3O[C@H](COP(=O)(O)O)[C@@H](O)[C@H]3O)c3ncnc1c23,,IIIB,RT activity,0.05 µM